Data on four sequences can be found in PMC4043881.

By UniProt entry, the sequences of proteins in these tests, tags left out. Chains listed by the source or under a name are the forms on record and can include a tag or linker. Residues count along the entry.
UniProt O25671, 1-149, tags or fused parts left off: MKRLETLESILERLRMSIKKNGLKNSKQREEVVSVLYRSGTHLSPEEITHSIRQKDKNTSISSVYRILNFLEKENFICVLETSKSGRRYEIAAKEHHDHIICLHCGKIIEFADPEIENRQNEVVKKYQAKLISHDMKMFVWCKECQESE

The exact form of at least one protein or probe is not confirmed.

This data set concerns the target Fur (UniProt O25671). In words: DNase I footprinting. Conditions: 10 mM Tris-Cl pH 7.85, 50 mM NaCl, 10 mM KCl, 0.02% Igepal CA-630, 10% glycerol, 5 mM DTT, 150 uM (NH4)2Fe(SO4)2 or 150 uM 2,2-dipyridyl, 300 ng salmon sperm DNA, recombinant protein, protein details: His6 N-terminal tag removed by thrombin, label: 5'-32P at NcoI end, probe letters rebuilt from the primers and the genome, part of a longer molecule.

Where [1] appears, read: holo-Fur, 150 uM (NH4)2Fe(SO4)2.

For “TACCTAGTTTCATACCTATCGGTATCTTGTTGGTATCAAAGACTGCTAAAAACTGCTACACACTTGAGTAATCAATTCATGTCTTTGAACATTACCATTATACCACAATAATCAAGATCAAGCATTTTTTTTTCATTAATCATTATTAATATTGAAAAAAGCCCGATCGTTGCAGGCGTCTAAAGGCTAGGAACGATTCACATTTTTACCCACAATTAACAAAAATTTGCTAAAATGAACGAATTTTAACAAAGAAAAGAAATAAGAAATGAACCTTCAAGAATAAATCAAATGCAATGCTTAAATATAGTTGGAATCAAGGTGAGTGCATGAAGCGTTCTAAAAATGGTTTGGTTTGTGTGTCATGCTTACCATAAAGTATATA (double strand) [PcagA-PcagB intergenic probe, operator III]”, the binding result under setting [1] is “binds”.

Regarding “TACCTAGTTTCATACCTATCGGTATCTTGTTGGTATCAAAGACTGCTAAAAACTGCTACACACTTGAGTAATCAATTCATGTCTTTGAACATTACCATTATACCACAATAATCAAGATCAAGCATTTTTTTTTCATTAATCATTATTAATATTGAAAAAAGCCCGATCGTTGCAGGCGTCTAAAGGCTAGGAACGATTCACATTTTTACCCACAATTAACAAAAATTTGCTAAAATGAACGAATTTTAACAAAGAAAAGAAATAAGAAATGAACCTTCAAGAATAAATCAAATGCAATGCTTAAATATAGTTGGAATCAAGGTGAGTGCATGAAGCGTTCTAAAAATGGTTTGGTTTGTGTGTCATGCTTACCATAAAGTATATA (double strand) [PcagA-PcagB intergenic probe, operator IV]”, where the note is “apo-Fur, 150 uM 2,2-dipyridyl”, the binding result is on record as “binds”.

Regarding “TACCTAGTTTCATACCTATCGGTATCTTGTTGGTATCAAAGACTGCTAAAAACTGCTACACACTTGAGTAATCAATTCATGTCTTTGAACATTACCATTATACCACAATAATCAAGATCAAGCATTTTTTTTTCATTAATCATTATTAATATTGAAAAAAGCCCGATCGTTGCAGGCGTCTAAAGGCTAGGAACGATTCACATTTTTACCCACAATTAACAAAAATTTGCTAAAATGAACGAATTTTAACAAAGAAAAGAAATAAGAAATGAACCTTCAAGAATAAATCAAATGCAATGCTTAAATATAGTTGGAATCAAGGTGAGTGCATGAAGCGTTCTAAAAATGGTTTGGTTTGTGTGTCATGCTTACCATAAAGTATATA (double strand) [PcagA-PcagB intergenic probe, operator II]”, the binding result under setting [1] is listed as “binds”.

For the sequence “TACCTAGTTTCATACCTATCGGTATCTTGTTGGTATCAAAGACTGCTAAAAACTGCTACACACTTGAGTAATCAATTCATGTCTTTGAACATTACCATTATACCACAATAATCAAGATCAAGCATTTTTTTTTCATTAATCATTATTAATATTGAAAAAAGCCCGATCGTTGCAGGCGTCTAAAGGCTAGGAACGATTCACATTTTTACCCACAATTAACAAAAATTTGCTAAAATGAACGAATTTTAACAAAGAAAAGAAATAAGAAATGAACCTTCAAGAATAAATCAAATGCAATGCTTAAATATAGTTGGAATCAAGGTGAGTGCATGAAGCGTTCTAAAAATGGTTTGGTTTGTGTGTCATGCTTACCATAAAGTATATA (double strand) [PcagA-PcagB intergenic probe, operator I]”, the binding result (apo-Fur, 150 uM 2,2-dipyridyl) is given as “binds”.
